Sequence variants of PSTVd loop 15 after infection

Data from the supplement of Wu et al. 2024, doi:10.1371/journal.ppat.1012142.

The pool varies loop 15 of the PSTVd intermediate strain in the pattern GGAAACCGNNNNNNC; wild type is GGAAACCGCUACUAC (upper and lower strand joined, each 5' to 3', the first 7 letters being the upper strand, closing pairs included).

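Three N. benthamiana plants were inoculated with the whole mutant pool. Samples came from the inoculated region at 5 days, the leaf margin at 10 and upper systemic leaves at 12.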

Values are reads per thousand in the sample; higher means more abundant, 0 means not found.
Each value is the mean of three plants.
"Pool" is the share in the plasmid pool used as inoculum, on the same scale.
The inoculated region was read from the minus strand, the other sites from the plus strand.

sequence,pool,inoculated region,leaf margin,systemic leaves
GGAAACCGAAAAUUC,0.304,0.305,0.148,0.0660
GGAAACCGAACAAGC,0.192,0.0858,0.00742,0
GGAAACCGACUCGUC,0.208,0.106,0,0.00537
GGAAACCGACUGACC,0.272,0.0557,0.0267,0.00537
GGAAACCGAGGGGGC,0.192,0.0958,0.0187,0
GGAAACCGAGUGAGC,0.144,0.0869,0,0.00537
GGAAACCGAUUUAUC,0.240,0.198,0.0175,0
GGAAACCGAUUUUGC,0.176,0.118,0.00668,0
GGAAACCGCAAACGC,0.224,0.124,0.00539,0
GGAAACCGCAGCAGC,0.208,0.0920,0.00742,0
GGAAACCGCCCGUAC,0.304,0.295,0.111,0.0749
GGAAACCGCGAGCAC,0.272,0.314,0.121,0.0868
GGAAACCGCGCGCAC,0.160,0.121,0.0215,0
GGAAACCGCGGCUCC,0.0640,0.331,0.00539,0.0104
GGAAACCGCGGUAUC,0.192,0.175,0.0134,0.00537
GGAAACCGCUAAAAC,0.272,0.312,0.126,0.0923
GGAAACCGCUCCAAC,0.192,0.112,0.00539,0
GGAAACCGCUGAAAC,0.256,0.0795,0.00742,0
GGAAACCGCUUCAAC,0.176,0.116,0.0208,0.0107
GGAAACCGGAAAGGC,0.144,0.138,0.00668,0
GGAAACCGGAGUACC,0.416,0.0642,0,0.00537
GGAAACCGGAUUUCC,0.288,0.0934,0.00742,0
GGAAACCGGCAAGGC,0.288,0.0748,0.0121,0
GGAAACCGGGAACCC,0.272,0.0894,0.00742,0
GGAAACCGGGCGCAC,0.144,0.151,0.0134,0
GGAAACCGGGGAUAC,0.128,0.0878,0.0215,0
GGAAACCGGGGUCCC,0.256,0.112,0.00668,0
GGAAACCGGGUUAUC,0.288,0.118,0.0134,0
GGAAACCGGUCAAUC,0.400,0.107,0.0134,0
GGAAACCGGUCGCCC,0.192,0.0742,0,0.00504
GGAAACCGGUGACAC,0.288,0.0695,0.00668,0
GGAAACCGGUGAUGC,0.304,0.0787,0.00668,0
GGAAACCGGUGGUUC,0.224,0.239,0.106,0.0161
GGAAACCGUACAGUC,0.160,0.0667,0,0
GGAAACCGUAUACUC,0.144,0.103,0.0175,0.00537
GGAAACCGUAUGCGC,0.288,0.0389,0.0195,0
GGAAACCGUCUCUAC,0.240,0.340,0.169,0.0107
GGAAACCGUGACUAC,0.208,0.382,0.0967,0.0259
GGAAACCGUGGACCC,0.272,0.0805,0.00742,0
GGAAACCGUGGGCAC,0.240,0.0814,0.0162,0.00537
GGAAACCGUGUAGGC,0.288,0.0814,0.00539,0
GGAAACCGUUUAGGC,0.208,0.0786,0,0

Excerpt, the final 2 entries:

{"sequence": "GGAAACCGUGUAGGC", "pool": "0.288", "inoculated region": 0.0814, "leaf margin": 0.00539, "systemic leaves": 0}
{"sequence": "GGAAACCGUUUAGGC", "pool": "0.208", "inoculated region": 0.0786, "leaf margin": 0, "systemic leaves": 0}

With 43,870-66,106 reads a sample, very low values are single reads.
The authors trace changes outside the varied positions to PCR and sequencing errors or to mutation in the plant; presence does not show that a variant is infectious alone.
Wild type was 33.9 per thousand in the pool and the most common sequence in every sample (inoculated region 202, 200, 159; leaf margin 724, 746, 710; systemic leaves 856, 883, 880).